System: Plasmodium falciparum 3D7 growth, plate reader
Assay: growth inhibition of yeast carrying parasite Hsp90, dose response, anti-malarial Hsp90 inhibitor project, ATP luminescence, 48 h, cherry-picked samples (AID 540268)

With `CC1=CC2OC3CC4OC(=O)C=CC=CC(=O)OCCC(C)C(O)C(=O)OCC2(CC1)C4(C)C31CO1` (stereo unspecified) the AC50 was 221 nM.
